A mixed list of measured activities; the numbers were collected in NIAID ChemDB.

Common to all: growth or infection tests

ECn is the concentration giving n% inhibition of infection, replication or growth. Inhibition is in % at the dose shown (toxicity tests: loss of growth or viability). Rows are shuffled and stem from different studies. Blank or dashed fields: not listed here.

compound | endpoint | dose | agent | method | cells | value
CCC(C)n1ncn(-c2ccc(N3CCN(c4ccc(OC[C@H]5CO[C@](Cn6cncn6)(c6ccc(Cl)cc6Cl)O5)cc4)CC3)cc2)c1=O | EC50 |  | Encephalitozoon cuniculi |  |  | >5 µg/mL
CCCSc1ccc2nc(NC(=O)OC)[nH]c2c1 | inhibition | 0.1 µg/mL | Encephalitozoon intestinalis |  | RK-13 | 85.2%
O=C1C(=O)c2ccccc2C(O)=C1C1CCC(c2ccc(Cl)cc2)CC1 | inhibition | 1 µg/mL | Encephalitozoon cuniculi | cytopathic effect | MRC-5 fibroblasts | 0%
CCCOc1ccc2nc(NC(=O)OC)[nH]c2c1 | EC50 |  | Encephalitozoon cuniculi |  |  | 0.0015 µg/mL
COC(=O)Nc1nc2ccc(C(=O)c3ccccc3)cc2[nH]1 | inhibition | 1 µg/mL | Encephalitozoon intestinalis |  | RK-13 | 74.5%
CO[C@@H]1[C@H](OC(=O)NC(=O)CCl)CC[C@]2(CO2)[C@H]1[C@@]1(C)O[C@@H]1CC=C(C)C | EC50 |  | Encephalitozoon cuniculi |  |  | 0.01 µg/mL
CO[C@H]1[C@@H](OC(=O)/C=C/C=C/C=C/C=C/C(=O)O)CC[C@@]2(CO2)[C@@H]1[C@@]1(C)O[C@@H]1CC=C(C)C | inhibition | 0.1 µg/mL | Encephalitozoon cuniculi | cytopathic effect | MRC-5 fibroblasts | 100%
CCOC(=O)Nc1cc2c(c(N)n1)N=C(c1ccc(OC)cc1)CO2 | inhibition | 1 µg/mL | Encephalitozoon intestinalis |  | RK-13 | 84.8%
Cc1ncc([N+](=O)[O-])n1CCO | EC50 |  | Encephalitozoon cuniculi |  |  | >5 µg/mL
CCn1cc(C(=O)O)c(=O)c2cc(F)c(N3CCN(C)CC3)cc21 | inhibition | 20 µg/mL | Encephalitozoon cuniculi | cytopathic effect | MRC-5 fibroblasts | 35%
CCOC(=O)Nc1cc2c(c(N)n1)N=C(c1ccccc1)CCN2 | inhibition | 0.1 µg/mL | Encephalitozoon intestinalis |  | RK-13 | 73.2%
CCC(C)n1ncn(-c2ccc(N3CCN(c4ccc(OC[C@H]5CO[C@](Cn6cncn6)(c6ccc(Cl)cc6Cl)O5)cc4)CC3)cc2)c1=O | inhibition | 0.05 µg/mL | Encephalitozoon cuniculi | cytopathic effect | MRC-5 fibroblasts | 0%
CC(C)C[C@H](NC(=O)[C@@H](O)[C@H](N)Cc1ccccc1)C(=O)O | EC50 |  | Encephalitozoon cuniculi |  |  | 10 µg/mL
O=C(Nc1ncc([N+](=O)[O-])s1)c1ccccc1O | inhibition | 1 µg/mL | Encephalitozoon intestinalis |  | RK-13 | 64%
NC[C@@H]1O[C@H](O[C@H]2[C@@H](O)[C@H](O[C@@H]3[C@@H](O)[C@H](N)C[C@H](N)[C@H]3O[C@H]3O[C@H](CO)[C@@H](O)[C@H](O)[C@H]3N)O[C@@H]2CO)[C@H](N)[C@@H](O)[C@@H]1O | inhibition | 500 µg/mL | Encephalitozoon cuniculi | cytopathic effect | MRC-5 fibroblasts | 0%

Repeating the final 2 entries:

| compound | endpoint | dose | agent | method | cells | value |
|---|---|---|---|---|---|---|
| O=C(Nc1ncc([N+](=O)[O-])s1)c1ccccc1O | inhibition | 1 µg/mL | Encephalitozoon intestinalis |  | RK-13 | 64% |
| NC[C@@H]1O[C@H](O[C@H]2[C@@H](O)[C@H](O[C@@H]3[C@@H](O)[C@H](N)C[C@H](N)[C@H]3O[C@H]3O[C@H](CO)[C@@H](O)[C@H](O)[C@H]3N)O[C@@H]2CO)[C@H](N)[C@@H](O)[C@@H]1O | inhibition | 500 µg/mL | Encephalitozoon cuniculi | cytopathic effect | MRC-5 fibroblasts | 0% |